Reference: patent USRE47786E1, “Haloalkyl heteroaryl benzamide compounds” (Romark Laboratories, L.C., priority 2009, dated 2019)

Key:
[1] = tested on: HCV replicon cell line, AVAS (sub-genomic CONI, genotype 1b); assay: Primary HCV replicon cell assay, genotype 1B; format: cell-based, Hepatitis C Virus; conditions: CC50/EC50 for HCV assays
Method: Antiviral activity of test compounds was assessed in a 3-day assay using the stably-expressing HCV replicon cell line, AVAS (sub-genomic CONI, genotype 1b) [Blight et al., Science 290, 1972-1974 (2000)] maintained as sub-confluent cultures on 96-well plates as previously described (Okuse et al., Antiviral Research 65, 23-34 (2005)]. Antiviral activity was determined by blot hybridization analysis of intracellular HCV RNA (normalized to the level of cellular B-actin RNA in each culture sample) and cytotoxicity was assessed by neutral red dye uptake after 3 days of treatment. Additional studies were performed using Huh7 cells containing another HCV replicon, H/FL-Neo, a genotype 1a full length construct [Blight et al., J. Virol. 77, 3181-3190 (2003)]. For studies involving human serum, standard culture medium (which contains 10% fetal bovine serum) and assay conditions were maintained.
(§1) EC50, EC90 and CC50 values (±standard deviations [S.D.]) were calculated by linear regression analysis using data combined from all treated cultures (Korba and Gerin, 1992; Okuse et al., 2005). EC50 and EC90 are drug concentrations at which a 2-fold, or a 10-fold depression of intracellular HBV DNA or HCV RNA (relative to the average levels in untreated cultures), respectively, was observed. CC50 is the drug concentration at which a 2-fold lower level of neutral red dye uptake (relative to the average levels in untreated cultures) was observed. Selectivity index (S.I.) was calculated as CC50/EC90 for HBV assays and CC50/EC50 for HCV assays. EC90 values were used for calculation of the S.I. in HBV assays since at least a 3-fold depression of HBV DNA levels is typically required to achieve statistical significance in this assay system (Korba and Gerin, 1992). For combination treatments, EC50, EC90, CC50 and S.I. are presented for the first compound listed. The molar ratio of the compounds in each combination is also indicated.

HBV = HBV extracellular virion antiviral assay in 2.2.15 cells; format: cell-based, Hepatitis B Virus; conditions: CC50/EC90 for HBV assays
Method: HBV antiviral assays were conducted as previous described [Korba and Gerin, Antiviral Res. 19:55 (1992 Confluent cultures of 2.2.15 cells were maintained on 96-well flat-bottomed tissue culture plates (confluence in this culture system is required for active, high levels of HBV replication equivalent to that observed in chronically-infected individuals [Sells et al. J. Virol. 62, 2836-2844 (1988); Korba and Gerin (1992)]. Cultures were treated with nine consecutive daily doses of the test compounds. HBV DNA levels were assessed by quantitative blot hybridization 24 hr. after the last treatment. Cytotoxicity was assessed by uptake of neutral red dye 24 hr. following the last treatment.
as §1, with “EC50 and EC90 are drug concentrations at which a 2-fold, or a 10-fold depression of intracellular HBV DNA or HCV RNA (relative to the average levels in untreated cultures), respectively, was observed.” left out

SMILES | SI [1] | SI (VIR) (HBV)
CC(=O)Oc1ccccc1C(=O)Nc1ncc(C(F)(F)F)s1 [Compound 1] | 0.9 | >11
O=C(Nc1ncc(C(F)(F)F)s1)c1ccccc1O [Compound 2] | 58.0 | >11
CC(=O)Oc1ccccc1C(=O)Nc1ncc([N+](=O)[O-])s1 [Nitazoxanide, reference compound] | 169.0 | >121
CC(=O)Oc1ccccc1C(=O)Nc1nnc(C(F)(F)F)s1 [Compound 5] | 15.0 | 
O=C(Nc1ncc([N+](=O)[O-])s1)c1ccccc1O [Tizoxanide, reference compound] | 100.0 | >172
O=C(Nc1nnc(C(F)(F)F)s1)c1ccccc1O [Compound 6] | 1.4 | 
